In ChEMBL document CHEMBL1156829 one finds IFI data, which are given here for three compounds.

Each structure is given as a SMILES string. The list shows a part of the results, in another mix than the full data.

The nature of the experiment: NOVARTIS: Inhibition Frequency Index (IFI) - the number of HTS assays where a compound showed > 50% inhibition/induction, expressed as a percentage of the number of assays in which the compound was tested. The experiment is classed as functional.
Compound `CCCN(CCC)[P+](CC)(N(CCC)CCC)N(CCC)CCC` registered an IFI of 12.7%.
For `CCCN(CCC)[P+](C)(N(CCC)CCC)N(CCC)CCC` the value was 7.84%; for `CN(C)[P+](C)(N(C)C)N(C)C`, 12.4%.
